Results of unrelated studies side by side (data: NIAID ChemDB).

All rows: host cell toxicity; measure: CC50

CCn: concentration that lowers growth or viability of the cells by n%. a–b is a range or a potency band. An empty or dashed field is not shown. Conditions beyond the fields shown may differ between rows.

SMILES | cell line | read by | result
Cc1cc(NC(=O)c2c(C(C)C)c(C(=O)C(=O)NCC(C)(C)O)n(C)c2C)ccc1F | HepG2 | MTT | >30 µM
CCCCSc1nc(N)nc2c1ncn2/C=C1/C[C@@H]1CO | Akata | ATP | >20 µM
Cc1ccc2nc(Cl)c(/C=C/C(=O)c3sccc3Br)cc2c1 | CEM | MTS | 31.6 µM
NC1=NC2C(C=CN2CC(CO)CCO)C(=O)N1 | TPA-stimulated BCBL-1 |  | 165 µM
Nc1nc(Cl)cc(NCC2(CO)CCCC2)n1 | MDCK |  | 5.5–39 µM
COc1ccnc2[nH]cc(C(=O)C(=O)N3CCN(C(=O)c4ccccc4)C[C@H]3C)c12 | Macrophage |  | >225 µM
CC(C)Sc1nc(N)nc2c1ncn2/C=C1/C[C@@H]1CO | Akata | ATP | >20 µM
C=C(C=O)CCC1C(=C)C[C@@H](OC(=O)c2ccccc2)[C@H]2[C@](C)(C(=O)O)CCC[C@]12C | HELA229 |  | 1.1 µg/mL
Nc1nc(O[C@@H]2CCOC2)c2nc(-c3ccc(NC(=O)[C@H]4CCNC4)cc3)ccc2n1 | Huh7 |  | >20 µM
Cc1ccc2nc(Cl)c(/C=C/C(=O)c3ccc(C)o3)cc2c1 | CEM | MTS | 14 µM
C=C1CC2C[C@@H](OC(=O)c3ccccc3)[C@H]3[C@@](CO)(C(=O)O)CCC[C@]3(C)C23CCC1C3 | HELA229 |  | 0.78 µg/mL
Cc1c(C(=O)Nc2cc(Cl)nc(Cl)c2)c(C)n(C)c1C(=O)C(=O)N[C@H](C)C(F)(F)F | HepG2 | MTT | >30 µM
COCCOc1nc(N)nc2ccc(-c3ccc(C(=O)NOC)cc3)nc12 | Huh7 |  | >20 µM
CCc1ccc(-n2cc(Cn3nc(-c4ccccc4)c4c3CCN(C(=O)Nc3ccccc3)C4)nn2)cc1 | RAW 264.7 | MTT | 370 µM
Cc1ccc2c3cn(C)c4ccccc4c-3nc2c1 | 3T3 | MTT | 2.067 µM
CC(=O)/C=C/c1cc(-c2ccccc2)cnc1Cl | RAW 264.7 | MTT | 127 µM
Cn1cc2c3cc(Cl)ccc3nc-2c2ccccc21 | 3T3 | MTT | 2.104 µM
CC(C)(C)c1ccccc1Sc1c(O)cc(-c2ccc(OCc3cccnc3)cc2)oc1=O | CH-1 |  | 1.31 µM
C[C@@H]1CC[C@H]2C3=C(C[C@H](O)[C@@]2(O)C1)C(=O)c1c(O)cccc1C3=O | NCI-H187 | resazurin | 7.7 µM
Cc1ccc2nc(Cl)c(/C=C/C(=O)c3ccc(I)s3)cc2c1 | CEM | MTS | 61.1 µM
Cc1cn([C@H]2O[C@@H](CO)[C@H](O)[C@H]2F)c(=O)[nH]c1=O | H-1 |  | 1000 µM
CCOc1nc(N)nc2ccc(-c3ccc(C(=O)Nc4ccccc4)cc3)nc12 | Huh7 |  | >20 µM
[N-]=[N+]=N[C@]1(CO)O[C@@H](n2ccc(NCc3cccnc3)nc2=O)[C@@H](F)[C@@H]1O | Hep2.2.15 | MTT | >10 µM
C[C@H](C[C@H](OC(=O)/C=C/c1ccccc1Cl)[C@@H](OC(=O)/C=C/c1ccccc1Cl)C(C)(C)O)C1=C2C[C@H](OC(=O)/C=C/c3ccccc3Cl)[C@H]3[C@@]4(C)CCC(=O)C(C)(C)[C@@H]4CC[C@]3(C)[C@@]2(C)CC1 | HepG2.2.15 |  | >1300 µM
CC(=O)N1CCC(CO)(NC(=O)C(=O)c2c(C)c(C(=O)Nc3ccc(F)c(C)c3)c(C)n2C)CC1 | HepG2 | MTT | >30 µM
COc1ccc2nc(Cl)c(/C=C/C(=O)c3ccc(Br)s3)cc2c1 | PBMC | MTS | 17.3 µM
Nc1nc(N2CCOCC2)c2nc(-c3ccc(C(=O)NC4CC4)cc3)ccc2n1 | Huh7 |  | <10 µM
[N-]=[N+]=N[C@]1(CO)O[C@@H](n2ccc(NC3CC3)nc2=O)[C@@H](F)[C@@H]1O | Hep2.2.15 | MTT | 391 µM
Nc1nc(OCc2ccccc2)c2ncn(/C=C3/C[C@@H]3CO)c2n1 | Akata | ATP | >20 µM
Nc1nc(=O)n([C@H]2O[C@@H](CO)[C@H](O)[C@H]2F)cc1I | FLOW 2002 |  | 100 µg/mL
CC(O)C1(CNc2cc(Cl)nc(N)n2)CCC1 | MDCK |  | 110 µM
O=c1[nH]c(=O)n([C@H]2C[C@H](O)[C@@H](CO)O2)cc1/C=C/Br | TPA-stimulated BCBL-1 |  | 105 µM
Cc1ccc(-n2cc(Cn3nc(-c4ccccc4)c4c3CCN(C(=O)Nc3ccccc3)C4)nn2)cc1 | RAW 264.7 | MTT | 335 µM
CCOCC(=O)O[C@@H](C[C@@H](C)[C@]12CC[C@@]3(C)[C@@]1(C[C@H](OC(=O)COCC)[C@H]1[C@@]4(C)CCC(=O)C(C)(C)[C@@H]4CC[C@@]13C)O2)[C@@H](OC(=O)COCC)C(C)(C)OC(=O)COCC | HepG2.2.15 |  | >1400 µM
Cc1c(C(=O)Nc2ccc(F)c(S(C)(=O)=O)c2)c(C)n(C)c1C(=O)C(=O)NC(C)(C)C | HepG2 | MTT | >30 µM
Cc1cnc(Cl)c(/C=C/C(=O)c2ccccc2)c1 | RAW 264.7 | MTT | 16 µM
COCC1(C)C2CC2[C@@]2(C)CC[C@@H](Br)[C@@](C)(O)CC[C@@H](C(C)(C)Br)OC(=O)c3ccc(O)c(c3)CC12 | DU4475 cells | MTT | 3.3 µM
Nc1nc(Cl)cc(NCCCO)n1 | MDCK |  | >490 µM
CCCCCCSc1nc(N)nc2c1ncn2/C=C1/C[C@@H]1CO | Akata | ATP | >20 µM
CCOC(=O)CCCCCOc1cccc(CN(C(=O)c2ccc(-c3cccc(OC(C)C)c3)cc2)C(C)C)c1 | BJ |  | >20 µM
CCOc1nc(N)nc2ccc(-c3ccc(C(=O)Nc4ccc(F)cc4)cc3)nc12 | Huh7 |  | >20 µM
Nc1nc(N)c2nc(CNc3ccc(C(=O)NC(CCCCP(=O)(O)O)C(=O)O)cc3)cnc2n1 | L1210/R81 |  | >280 µM
COC(=O)/C=C1\S/C(=N/N=C/c2cccc(OC)c2)NC1=O | Huh 5-2 | MTS / absorbance | >50 µM
Nc1nc(N)c2nc(CNc3ccc(C(=O)NC(CP(=O)(O)O)C(=O)O)cc3)cnc2n1 | L1210/R81 |  | 390 µM
CCOC(=O)CCCCCOc1cccc(CN(C(=O)c2ccc(-c3cccc(CC(=O)O)c3)cc2)C(C)C)c1 | HEK 293 |  | >20 µM
Cc1c(C(=O)Nc2ccc(F)c(Br)c2)c(C)n(C)c1C(=O)C(=O)NC(C)(C)C | HepG2 | MTT | >30 µM
Nc1nccc(NCC2(CO)CC(Cc3ccccc3)C2)n1 | MDCK |  | 4.4–12 µM
Nc1ccn([C@@H]2O[C@@H](CO)[C@@H](O)[C@@H]2O)c(=O)n1 | FLOW 2002 |  | >100 µg/mL
O=C(NCc1ccc(Cl)cc1)c1c[nH]c2ccc(C#CCO)cc2c1=O | 10T1/2 |  | 62 µM
COC(=O)/C=C1\S/C(=N/N=C/c2cc([N+](=O)[O-])ccc2O)NC1=O | Huh 5-2 | MTS / absorbance | 5.86 µM
CC1=CC(=C(c2ccc(N)c(S(=O)(=O)O)c2)c2ccc(N)c(S(=O)(=O)O)c2)C=C(S(=O)(=O)O)C1=N | HuT-78 |  | >625 µM
CC(C)CSc1nc(N)nc2c1ncn2/C=C1/C[C@@H]1CO | Akata | ATP | >20 µM
Cc1ccc2nc(Cl)c(/C=C/C(=O)c3ccc4c(c3)OCCO4)cc2c1 | PBMC | MTS | 43.7 µM
CCOc1nc(N)nc2ccc(-c3cccc(NS(=O)(=O)CC)c3)nc12 | Huh7 |  | >20 µM
Nc1nc2c(ncn2COC(CO)CO)c(=O)[nH]1 | CD4+ T lymphocytes |  | 61 µM
C=CCOc1nc(N)nc2c1ncn2/C=C1/C[C@@H]1CO | Akata | ATP | >20 µM
Nc1ncc2c(ncn2COC(CO)CO)n1 | TPA-stimulated BCBL-1 |  | 8.7 µM
Nc1nc2c(ncn2COC(CO)CO)c(=O)[nH]1 | H-1 |  | 75 µM
CC(C)CC(=O)O[C@@H](C[C@@H](C)C1=C2C[C@H](OC(=O)CC(C)C)[C@H]3[C@@]4(C)CCC(=O)C(C)(C)[C@@H]4CC[C@]3(C)[C@@]2(C)CC1)[C@@H](OC(=O)CC(C)C)C(C)(C)O | HepG2.2.15 |  | >1200 µM
CCOc1nc(N)nc2ccc(-c3ccc(C(=O)NCC(C)C)cc3)nc12 | Huh7 |  | >20 µM
COC(=O)/C=C1\S/C(=N/N=C/c2ccccc2OCc2ccccc2)NC1=O | Huh 5-2 | MTS / absorbance | 23.9 µM
C[C@H](C[C@H](OC(=O)C1CC1)[C@@H](OC(=O)C1CC1)C(C)(C)O)C1=C2C[C@H](OC(=O)C3CC3)[C@H]3[C@@]4(C)CCC(=O)C(C)(C)[C@@H]4CC[C@]3(C)[C@@]2(C)CC1 | HepG2.2.15 |  | >1000 µM
O=C(O)C1=CC(=C(c2ccc(O)c(C(=O)O)c2)c2ccc(O)c(C(=O)O)c2)C=CC1=O | HuT-78 |  | 13 µM
[N-]=[N+]=N[C@]1(CO)O[C@@H](n2ccc(NCCO)nc2=O)[C@@H](F)[C@@H]1O | Hep2.2.15 | MTT | <2 µM
CC(C)N(Cc1cccc(OCCCCCC(=O)OC(=O)O)c1)C(=O)c1ccc(-c2ccoc2)cc1 | RAJI |  | >20 µM
COC(=O)/C=C1\S/C(=N/N=C/c2cccc(Br)c2)NC1=O | Huh 5-2 | MTS / absorbance | 23.2 µM
C=C1[C@H](O)[C@H](CO)O[C@@H]1n1ccc(N)nc1=O | FLOW 2002 |  | >100 µg/mL
CC1CC(=O)c2c(ccc3c2C(=O)c2cccc(O)c2C3=O)C1 | NCI-H187 | resazurin | 30.3 µM
CCCc1cnc(Cl)c(/C=C/C(=O)OCC)c1 | RAW 264.7 | MTT | 8 µM
Nc1ccn([C@@H]2O[C@@H](CO)[C@H](O)[C@H]2O)c(=O)n1 | FLOW 2002 |  | >100 µg/mL
CCOc1nc(N)nc2ccc(-c3ccc(NC(=O)[C@H](C)N)c(OC)c3)nc12 | Huh7 |  | >20 µM
Nc1nc(=O)n([C@@H]2O[C@@H](CO)[C@H](O)[C@H]2F)cc1I | FLOW 2002 |  | 100 µg/mL
Cc1cc(NC(=O)c2c(C)c(C(=O)C(=O)NC3(C)CCC(O)CC3)n(C)c2-c2nccs2)ccc1F | HepG2 | MTT | >30 µM
Cn1cc2c3ccccc3nc-2c2ccc(Cl)cc21 | 3T3 | MTT | 2.263 µM
CCOC(=O)/C=C/[C@H](C[C@@H]1CCNC1=O)NC(=O)c1ccc2ccc(Br)cc2c1 | H1-HELA |  | >100 µM
Cc1cc(NC(=O)c2c(C3CC3)c(C(=O)C(=O)NC3(C)CCC(O)CC3)n(C)c2C)ccc1F | HepG2 | MTT | >30 µM
C/C(=N\N=C(N)N)c1cc(NC(=O)CCCCCCCCC(=O)Nc2cc(/C(C)=N/N=C(N)N)cc(/C(C)=N/N=C(N)N)c2)cc(/C(C)=N/N=C(N)N)c1 | PM1 | MTT | 2 µM
COc1ccc(CCNC(=O)CCCCC(C)=O)cc1OC | HEK 293 |  | <7.5 µM
COC(=O)c1cc(NC(=O)c2c(C)c(C(=O)C(=O)NC(C)(C)C)n(C)c2C)ccc1F | HepG2 | MTT | >30 µM
COCC(=O)O[C@@H](C[C@@H](C)[C@]12CC[C@@]3(C)[C@@]1(C[C@H](OC(=O)COC)[C@H]1[C@@]4(C)CCC(=O)C(C)(C)[C@@H]4CC[C@@]13C)O2)[C@@H](OC(=O)COC)C(C)(C)OC(=O)COC | HepG2.2.15 |  | >800 µM
CCOC(=O)/C=C/c1cc(-c2ccccc2)cnc1Cl | RAW 264.7 | MTT | 21 µM
Nc1ccn([C@H]2O[C@@H](CO)[C@H](O)[C@H]2F)c(=O)n1 | FLOW 2002 |  | 100 µg/mL

The first 7 rows once more:

Cc1cc(NC(=O)c2c(C(C)C)c(C(=O)C(=O)NCC(C)(C)O)n(C)c2C)ccc1F ; cell line: HepG2 ; read by: MTT ; result: >30 µM
CCCCSc1nc(N)nc2c1ncn2/C=C1/C[C@@H]1CO ; cell line: Akata ; read by: ATP ; result: >20 µM
Cc1ccc2nc(Cl)c(/C=C/C(=O)c3sccc3Br)cc2c1 ; cell line: CEM ; read by: MTS ; result: 31.6 µM
NC1=NC2C(C=CN2CC(CO)CCO)C(=O)N1 ; cell line: TPA-stimulated BCBL-1 ; result: 165 µM
Nc1nc(Cl)cc(NCC2(CO)CCCC2)n1 ; cell line: MDCK ; result: 5.5–39 µM
COc1ccnc2[nH]cc(C(=O)C(=O)N3CCN(C(=O)c4ccccc4)C[C@H]3C)c12 ; cell line: Macrophage ; result: >225 µM
CC(C)Sc1nc(N)nc2c1ncn2/C=C1/C[C@@H]1CO ; cell line: Akata ; read by: ATP ; result: >20 µM